Test results published in the supplement of paper PMC3578754.
Fold change is the IC50 on the isolate divided by the IC50 on a reference virus; 1 = unchanged, higher = more resistant. Changes are given against the subtype B consensus. No active / inactive call. The values were gathered from many studies (numbered anew) with different assays, which the source does not name. Most viruses are clinical isolates; some are laboratory strains or clones with known resistance changes. Isolates with mixed residues are left out; stretches that were not sequenced show no change. Round top values that many isolates share are read here as limits; other very high values and 0.1 may be limits too. For some of these results: The protease changes I3V and N37S, insertions and deletions cannot be read from the source.

Assays:
saquinavir = compound: CC(C)(C)NC(=O)[C@@H]1C[C@@H]2CCCC[C@@H]2CN1C[C@@H](O)[C@H](Cc1ccccc1)NC(=O)[C@H](CC(N)=O)NC(=O)c1ccc2ccccc2n1 [saquinavir]; test: fold change of IC50 against reference virus; higher = more resistant; Cell-culture drug susceptibility tests of virus bearing the protease of each isolate, gathered from many studies.
lopinavir = compound: Cc1cccc(C)c1OCC(=O)N[C@@H](Cc1ccccc1)[C@@H](O)C[C@H](Cc1ccccc1)NC(=O)[C@H](C(C)C)N1CCCNC1=O [lopinavir]; test: as above
indinavir = compound: CC(C)(C)NC(=O)[C@@H]1CN(Cc2cccnc2)CCN1C[C@@H](O)C[C@@H](Cc1ccccc1)C(=O)N[C@H]1c2ccccc2C[C@H]1O [indinavir]; test: as above
nelfinavir = compound: Cc1c(O)cccc1C(=O)N[C@@H](CSc1ccccc1)[C@H](O)CN1C[C@H]2CCCC[C@H]2C[C@H]1C(=O)NC(C)(C)C [nelfinavir]; test: as above
zidovudine = compound: Cc1cn([C@H]2C[C@H](N=[N+]=[N-])[C@@H](CO)O2)c(=O)[nH]c1=O [zidovudine]; test: fold change of IC50 against reference virus; higher = more resistant
Description: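 Cell-culture drug susceptibility tests of virus bearing the reverse transcriptase of each isolate, gathered from many studies.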

Row | Test System | fold change of IC50 against reference virus (saquinavir) | fold change of IC50 against reference virus (lopinavir) | fold change of IC50 against reference virus (indinavir) | fold change of IC50 against reference virus (nelfinavir) | fold change of IC50 against reference virus (zidovudine)
1 | HIV-1 isolate 796 (protease changes: M46L V82A L90M, study 58) | 0.6 | 0.8 | 1.3 | 1.1 | 
2 | HIV-1 isolate 1304 (protease changes: E35D L63P, study 62) |  | 1 |  |  | 
3 | HIV-1 isolate 963 (protease changes: K20R E35D M36I I54V L63P A71V V82T, study 62) |  | 6 |  |  | 
4 | HIV-1 isolate 270 (protease changes: V82F I84V, study 58) | 1.8 | 2.3 | 2.4 | 3.6 | 
5 | HIV-1 isolate 322 (protease changes: I15V, study 62) |  | 1 |  |  | 
6 | HIV-1 isolate 1252 (protease changes: K20R E35D M36I N37C I54V L63P V82A, study 62) |  | 10 |  |  | 
7 | HIV-1 isolate 185 (protease changes: L10I M46I L63P A71V G73S V82T L90M, study 58) | 25.4 | 18.1 | 31.1 | 30 | 
8 | HIV-1 isolate 400 (protease changes: G48V L90M, study 58) | 24.7 | 1.2 | 6.2 | 7.6 | 
9 | HIV-1 isolate 1558 (protease changes: M36I I50V L63P, study 58) | 1.1 | 3.6 | 0.6 | 1.4 | 
10 | HIV-1 isolate 1641 (protease changes: L10I M46L G48V I54V Q58E L63P A71V V77I V82A L90M, study 6) |  | 39.1 | 39.9 | 44.1 | 
11 | HIV-1 isolate 544 (protease changes: L10F K20R L33I M36I M46L I54V Q58E L63P A71V V82C L90M, study 6) |  | 92.5 | 58 | 178 | 
12 | HIV-1 isolate 225 (protease changes: L10I M46I L63P A71T I84V L90M, study 58) | 5.7 | 3.8 | 3.5 | 6 | 
13 | HIV-1 isolate 768 (protease changes: L10R M46I L63P V82T I84V, study 58) | 1.3 | 5.3 | 5.1 | 4.1 | 
14 | HIV-1 isolate 1510 (protease changes: L10I L63P A71T I84V L90M, study 58) | 8 | 2.4 | 2.6 | 4.8 | 
15 | HIV-1 isolate 431 (protease changes: L10I K20R M36I M46L G48V I54T Q58E L63P A71V V82A, study 6) |  | 86.4 | 150 | 157 | 
16 | HIV-1 isolate 687 (reverse transcriptase changes: M41L D67N K70R W88S K122E F214L T215Y A272P K277R M357T A376T A400T N447S D460N S468T S519N, study 103) |  |  |  |  | 11

Row | Test System | fold change of IC50 against reference virus (saquinavir) | fold change of IC50 against reference virus (lopinavir) | fold change of IC50 against reference virus (indinavir) | fold change of IC50 against reference virus (nelfinavir) | fold change of IC50 against reference virus (zidovudine)
17 | HIV-1 isolate 1039 (protease changes: D30N M46I V77I, study 58) | 0.4 | 0.8 | 1.2 | 30.1 | 
18 | HIV-1 isolate 310 (reverse transcriptase changes: M41L K122E M184V F214L T215Y A272P K277R A376T A400T D460N S468T H483Y K512Q S519N, study 126) |  |  |  |  | 2
19 | HIV-1 isolate 1444 (reverse transcriptase changes: K70R K102Q S162C T215F K219Q K277R, study 98) |  |  |  |  | 8.4
20 | HIV-1 isolate 4 (reverse transcriptase changes: M41L K122E F214L A272P K277R A376T A400T D460N S468T H483Y K512Q S519N, study 3) |  |  |  |  | 4
21 | HIV-1 isolate 910 (reverse transcriptase changes: M41L D67N K70R K122E S156A F214L T215Y A272P K277R M357T A376T A400T N447S D460N S468T S519N, study 103) |  |  |  |  | 3
22 | HIV-1 isolate 1518 (protease changes: L10I L33F M46L G48V I54V Q58E L63P A71V G73S V82A I84V L90M, study 6) |  | 87.4 | 20.4 | 30.5 | 
23 | HIV-1 isolate 491 (reverse transcriptase changes: M41L D67N K70R L92I K122E F214L T215Y A272P K277R M357T A376T A400T N447S D460N S468T S519N, study 103) |  |  |  |  | 0.7
24 | HIV-1 isolate 1219 (reverse transcriptase changes: K122E F214L A272P K277R M357T A376T A400T N447S D460N S468T S519N, study 103) |  |  |  |  | 1
25 | HIV-1 isolate 1159 (reverse transcriptase changes: M41L K122E F214L A272P K277R A376T A400T D460N S468T H483Y K512Q S519N, study 143) |  |  |  |  | 4
26 | HIV-1 isolate 1545 (reverse transcriptase changes: D67N K70R K122E F214L T215Y K219Q A272P K277R A376T A400T D460N S468T H483Y K512Q S519N, study 143) |  |  |  |  | 120
27 | HIV-1 isolate 358 (reverse transcriptase changes: D67N K70R K122E Q161L F214L T215Y K219Q A272P K277R M357T A376T A400T N447S D460N S468T S519N, study 103) |  |  |  |  | 2
28 | HIV-1 isolate 874 (reverse transcriptase changes: K122E L210W F214L T215Y A272P K277R A376T A400T D460N S468T H483Y K512Q S519N, study 103) |  |  |  |  | 42
29 | HIV-1 isolate 623 (reverse transcriptase changes: M41L D67N K70R K122E F214L T215Y A272P K277R M357T A376T A400T N447S D460N S468T S519N, study 103) |  |  |  |  | 134
30 | HIV-1 isolate 1489 (reverse transcriptase changes: M41L K70R K122E F214L A272P K277R A376T A400T D460N S468T H483Y K512Q S519N, study 143) |  |  |  |  | 9
31 | HIV-1 isolate 233 (reverse transcriptase changes: D67N K70R L74V K122E F214L T215Y K219Q A272P K277R M357T A376T A400T N447S D460N S468T S519N, study 81) |  |  |  |  | 6.3
32 | HIV-1 isolate 1601 (reverse transcriptase changes: M41L D67N K70R K122E F214L T215Y A272P K277R A376T A400T D460N S468T H483Y K512Q S519N, study 143) |  |  |  |  | 180
